Earlier results on one molecule are cited in US4342772A, “β-Lactam compounds, antibacterial compositions thereof and method of use” (priority 1979, dated 1982).

The test system of series [1] is β-lactamases. Conditions: in words; background; cited from earlier work.
Series [2] deals with gram-positive and gram-negative organisms. Conditions: in words; "with a few exceptions"; background; cited from earlier work.
Series [3] concerns β-lactamase producing bacteria. Conditions: in combination with selected penicillins and cephalosporins; background; cited from earlier work.

Take `CC1(C)S[C@@H]2[C@H](Br)C(=O)N2[C@H]1C(=O)O`: the “Inhibition of a wide range of β-lactamases” value in series [1] is listed as “powerful inhibitors”. Also, the “Antibacterial activity against most gram-positive and gram-negative organisms” value in series [2] was “only weak antibacterial activity”. In addition, the “Synergy against β-lactamase producing bacteria” value in series [3] was “act synergistically”.
